Human monoclonal antibodies against the spike receptor-binding domain (heavy:light variable regions). IC50 against pseudoviruses bearing the spike of naturally observed variants; lower = stronger; >10 µg/ml means not reached at the top dose. No active / inactive call. The stated detection limit is 0.0005 µg/ml; values near or below 0.001 µg/ml lie at the floor of the assay.
B1: BD56-476 (protein)
chain 1: EVQLVESGGGLVKPGGSLRLSCAASGFTFSSYSMNWVRQAPGKGLEWVSSISSGSSYIDYADSVKGRFTISRDNAKNSLYLQMNSLRAEDTAVYYCARDQYPHEYSSGWYDYYYYYGMDVWGQGTTVTVSS
chain 2: QSVLTQPPSASGTPGQRVTISCSGSSSNLGSNYVYWYQQLPGTAPKLLIYRNNQRPSGVPDRFSGSKSDTSASLAISGLRSEDEADYYCAAWDDSLSGWVFGGGTKLTVL
B2: BD56-483 (protein)
chain 1: EVQLVESGGGLVQPGGSRRLSCGVSGFIFSDYEMNWVRQAPGKGLEWLAYISTSGNSKNYADSVKGRFTISRDNAKNSVYLQMNSLSAEDTAVYYCARAFYSYGSGTLDFWGQGTLVSVSS
chain 2: DIQMTQSPSSLSASVGDRVTITCRASQTIVNFFNWYQQKPGRAPKLLIYGVSSLQSGVPSRFSGSGSGTDFTLTISSLQPEDFATYYCQQSYSAPPTFGQGTKVEV
B3: BD56-487 (protein)
chain 1: EVQVVESGGGLVQPGRSLRLSCVASGFTFEDYAMHWVRQSPGKGLEWVSGVSWNSGIIGYADSVKGRFIISRDNAKNSLYLYMSGLTTEDTAVYYCGKIGGYSAYDIRSFSDGMDVWGQGTTVTVSS
chain 2: QSVLTQPPSASGTPGQRVAISCSGSTSNIGSNAVNWYQQLPGTAPKLLIYSDNHRPSGVPDRFSGSKSGTSASLAISGLQSEDEADYYCATWDDSLNAHYVFGTGTKVTVL
B4: BD56-488 (protein)
chain 1: EVQLVESGGGLVQPGRSLTLSCGASGFTFEDYAMHWVRQAPGKGLEWVSGSSWNSGTIGYADSVTGRFIISRDNAKNSLYLHMRNMRAEDTAIYYCAKALGWRDEYSFDYWGQGTLVTVSS
chain 2: QSALTQPASVSGSPGQSISISCTGTSSDVGGYNYVSWYQQHPDKAPKLMIYDVTDRPSGVSDRFSGSKSGNTASLTISGLQAEDEADYYCSSYTINSTLVFGTGTKVTVL
B5: DH1129 (protein)
chain 1: EVQLVESGGDLVQPGGSLRLSCAASGFTFSSYAMSWVRQAPGKGLEWVSTISTTGGDTYYADSVKGRFTISRDNSKNKLNLQMNSLRAEDTAVYSCARHNELDYWGQGTLVTVSS
chain 2: EIVLTQSPDFQSVTPNEKVTITCRASQSIGSSLHWYQQKPDQSPKLLIKYASQSFSGVPSRFSGSGSGTDFTLTINSLEAEDGATYYCHQSSSFPRTFGQGTKVEIK
B6: BD56-508 (protein)
chain 1: QMQLVQSGPEVKKPGTSVKVSCKASVFTFTVSSVQWVRQARGQGLEWIGWIVVGSGETDYSQKFQERVTITRDMSTGIVYMELTSLRPEDTAVYFCAAPHCNPTTCYDGFDMWGQGTMVAVSS
chain 2: EIVLTQSPGTLSLSPGERATLSCRASQSVRSSHLAWYQQKPGQAPRLFIYGASSRATGIPDRFSGSRSGTDFTLTISRLEPEDFAVYYCQQYDTSPWTFGQGTKLEIK
B7: BD56-514 (protein)
chain 1: EVQLVQSGAEVKKPGESLKISCKGSGYRFTSHWIGWVRQMPGKGLEWMGIIHLDDSDTRYSPSFQGLVTISVDKSISTAYLEWSSLTASDTAMYYCATSNPPGGFPEWFDPWGQGTLVTVSS
chain 2: QSALTQPASVSGSPGQSITISCTGTSSDVGGYDYVSWYQQHPGKAPKLMIFDVSKRPSGVSNRFSGSKSGNTASLTISGLQAEDEADYYCNSYTSSNIYVVFGGGTRLTVL
B8: BD56-529 (protein)
chain 1: EVQLVESGGGLVQPGGSLRLSCAASGFTFSNYDMHWVRQVTGKGLEWVSTIGTAGDTYYPDSVKGRFTISRENANNSLYLQMNSLRAGDTAVYYCARGDYSHYATYFYYYMDAWGKGTTVTVSS
chain 2: DIQMTQSPSSLSASVGDRVTITCRASQSIGSYLNWYQQQPGKAPKLLIYAASSLQSGVPSRFSGSGSGTDFTLTISSLQPEDFATYYCQQSYSNPPERSFGPGTKVDIK
B9: DH1111 (protein)
chain 1: EVQLLESGGGLVQPGGSLRLSCAASGFTFSSYAMSWVRQAPGKGLEWVSGISGSGITYNADSVKGRFTISRDNSKNTLYLQMNSLRAEDTAVYYCAKLAVAGGRGANYWGQGTLVTVSS
chain 2: DIQMTQSPSTLSASVGDRVTITCRASQSISSWLAWYQQKPGKAPKLLIYKASSLESGVPSRFSGSGSGTEFTLTISSLQPDDFATYYCQQYHSWWTFGQGTKVEIK
B10: BD56-538 (protein)
chain 1: QVQLVQSGAEVKKPGSSVRVSCKASGGSFSSYVITWVRQAPGQGLEWMGGIIPIFGTANYAQKFQGRVTITADESTSTAYMELSSLRSEDTAVYFCARESVDTSLVGGFYYFDYWGQGTLVTVSS
chain 2: DIQMTQSPSSLSASIGDRVTITCRASQSISTYLNWYQQKPGKAPKLLIYAASHLHSGVPSRFSGSGSGTDFTLTISSLQPEDFATYYCQQSDSTPWTFGQGTKVEIQ
B11: BD56-543 (protein)
chain 1: EVQLVESGGGLVQPGGSLRLSCAASGFSFSRYDMHWVRQATGKGLEWVATIGTAGDTYYADSVKGRFTISRENAEDSVYLQMNSLRAGDTAVYYCARGGSSNWYWYFDLWGRGTLVTVSS
chain 2: DIQMTQSPSSLSASVGDRVSITCRASQSIRNSLNWYQQKPGKAPKLLIYATSNLESGVPSRFSGSGSGTDFTLTISSLQRDDFATYYCQQSYSMPPITFGQGTRLETK
B12: BD56-547 (protein)
chain 1: QVQLVESGGGVVQPGRSLRLSCAASGFTFSSYAIHWVRQAPGKGLEWVAVISSDGSFKYFADSVKGRFSISRDNSKNTLYLQMNSLRAEDTALYYCARETGVPVTYFDYWGQGTLVTVSS
chain 2: DIQMTQSPSTLSASVGDRVTITCRASQSISGWLAWYQQKPGKAPKLLIYKASSLETGVSSRFSGSGSGTEFTLTISSLQPDDFATYYCQQYYSFWTFGQGTKVEIK

target: SARS-CoV-2 Omicron BA.1 spike pseudovirus; assay: pseudovirus neutralization IC50; higher = weaker neutralization
Method: (§1)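 Single-round VSV luciferase pseudovirus mixed with antibody dilutions for 1 h and put on Huh-7 cells for about a day; IC50 from the dose curve.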

Compared with B1, B2 is 320-fold lower in “pseudovirus neutralization IC50” value: 0.334 µg/mL for the first, 0.00105 µg/mL for the second.

B3 and B4 are within 1.5-fold of each other in “pseudovirus neutralization IC50” value: 0.00808 µg/mL for the first, 0.012 µg/mL for the second.

Going from B5 to B6, the “pseudovirus neutralization IC50” value falls from greater than 10 µg/mL to 0.001 µg/mL.

First: B7
Second: B8
The “pseudovirus neutralization IC50” value of the first is lower: 1.81 µg/mL for the first, greater than 10 µg/mL for the second.

Compared with B9, B10 is lower in “pseudovirus neutralization IC50” value: greater than 10 µg/mL for the first, 0.00209 µg/mL for the second.

Compared with B11, B12 is lower in “pseudovirus neutralization IC50” value: greater than 10 µg/mL for the first, 7.04 µg/mL for the second.

target: SARS-CoV-2 Omicron BA.2 spike pseudovirus; assay: as above
Method: as §1

Going from B1 to B2, the “pseudovirus neutralization IC50” value falls from 0.155 µg/mL to 0.000837 µg/mL (190-fold).

Going from B3 to B4, the “pseudovirus neutralization IC50” value rises from 0.00626 µg/mL to 0.00989 µg/mL (1.6-fold).

Going from B5 to B6, the “pseudovirus neutralization IC50” value falls from greater than 10 µg/mL to 0.00157 µg/mL.

First: B7
Second: B8
The “pseudovirus neutralization IC50” value of the first is lower: 1.27 µg/mL for the first, greater than 10 µg/mL for the second.

First: B9
Second: B10
The “pseudovirus neutralization IC50” value of the first is higher: greater than 10 µg/mL for the first, 0.00147 µg/mL for the second.

Compared with B11, B12 is lower in “pseudovirus neutralization IC50” value: greater than 10 µg/mL for the first, 6.57 µg/mL for the second.

target: SARS-CoV-2 Omicron BA.2.75 spike pseudovirus; assay: as above
Method: as §1

Compared with B1, B2 is 510-fold lower in “pseudovirus neutralization IC50” value: 0.36 µg/mL for the first, 0.000705 µg/mL for the second.

B3 and B4 are within 1.5-fold of each other in “pseudovirus neutralization IC50” value: 0.0187 µg/mL for the first, 0.0201 µg/mL for the second.

Compared with B5, B6 is lower in “pseudovirus neutralization IC50” value: greater than 10 µg/mL for the first, 0.00124 µg/mL for the second.

Going from B7 to B8, the “pseudovirus neutralization IC50” value rises from 1.29 µg/mL to greater than 10 µg/mL.

Going from B9 to B10, the “pseudovirus neutralization IC50” value falls from greater than 10 µg/mL to 0.00192 µg/mL.

Compared with B11, B12 is lower in “pseudovirus neutralization IC50” value: greater than 10 µg/mL for the first, 8.54 µg/mL for the second.

target: SARS-CoV-2 Omicron BA.5 spike pseudovirus; assay: as above
Method: as §1

Going from B1 to B2, the “pseudovirus neutralization IC50” value rises from 4.56 µg/mL to greater than 10 µg/mL.

Going from B3 to B4, the “pseudovirus neutralization IC50” value falls from 2.23 µg/mL to 1.35 µg/mL (1.7-fold).

First: B5
Second: B6
The “pseudovirus neutralization IC50” value of the first is higher: greater than 10 µg/mL for the first, 0.118 µg/mL for the second.

First: B7
Second: B8
The “pseudovirus neutralization IC50” value of the first is lower: 1.93 µg/mL for the first, greater than 10 µg/mL for the second.

Going from B9 to B10, the “pseudovirus neutralization IC50” value falls from greater than 10 µg/mL to 0.00314 µg/mL.

Compared with B11, B12 is lower in “pseudovirus neutralization IC50” value: greater than 10 µg/mL for the first, 7.13 µg/mL for the second.

target: SARS-CoV-2 Omicron BQ.1.1 spike pseudovirus; assay: as above
Method: as §1

B1 and B2 cannot be ordered by “pseudovirus neutralization IC50” value: greater than 10 µg/mL for the first, greater than 10 µg/mL for the second.

B3 and B4 cannot be ordered by “pseudovirus neutralization IC50” value: greater than 10 µg/mL for the first, greater than 10 µg/mL for the second.

First: B5
Second: B6
The “pseudovirus neutralization IC50” value of the first is higher: greater than 10 µg/mL for the first, 0.276 µg/mL for the second.

B7 and B8 cannot be ordered by “pseudovirus neutralization IC50” value: greater than 10 µg/mL for the first, greater than 10 µg/mL for the second.

B9 and B10 cannot be ordered by “pseudovirus neutralization IC50” value: greater than 10 µg/mL for the first, greater than 10 µg/mL for the second.

First: B11
Second: B12
The “pseudovirus neutralization IC50” value of the first is higher: greater than 10 µg/mL for the first, 4.79 µg/mL for the second.

target: SARS-CoV-2 Omicron XBB spike pseudovirus; assay: as above
Method: as §1

B1 and B2 cannot be ordered by “pseudovirus neutralization IC50” value: greater than 10 µg/mL for the first, greater than 10 µg/mL for the second.

First: B3
Second: B4
The “pseudovirus neutralization IC50” value of the first is 100-fold lower: 0.0737 µg/mL for the first, 7.47 µg/mL for the second.

B5 and B6 cannot be ordered by “pseudovirus neutralization IC50” value: greater than 10 µg/mL for the first, greater than 10 µg/mL for the second.

B7 and B8 cannot be ordered by “pseudovirus neutralization IC50” value: greater than 10 µg/mL for the first, greater than 10 µg/mL for the second.

B9 and B10 cannot be ordered by “pseudovirus neutralization IC50” value: greater than 10 µg/mL for the first, greater than 10 µg/mL for the second.

Compared with B11, B12 is lower in “pseudovirus neutralization IC50” value: greater than 10 µg/mL for the first, 5.96 µg/mL for the second.

target: SARS-CoV-2 early D614G spike pseudovirus; assay: as above
Method: as §1

Going from B1 to B2, the “pseudovirus neutralization IC50” value falls from 0.0383 µg/mL to 0.00277 µg/mL (14-fold).

Compared with B3, B4 is 8.6-fold lower in “pseudovirus neutralization IC50” value: 0.0705 µg/mL for the first, 0.00822 µg/mL for the second.

First: B5
Second: B6
The “pseudovirus neutralization IC50” value of the first is higher: greater than 10 µg/mL for the first, 0.00485 µg/mL for the second.

First: B7
Second: B8
The “pseudovirus neutralization IC50” value of the first is lower: 0.146 µg/mL for the first, greater than 10 µg/mL for the second.

Compared with B9, B10 is 1000-fold lower in “pseudovirus neutralization IC50” value: 1.16 µg/mL for the first, 0.00113 µg/mL for the second.

Compared with B11, B12 is 2.2-fold lower in “pseudovirus neutralization IC50” value: 3.4 µg/mL for the first, 1.53 µg/mL for the second.
